{"source": "patent US20240336672A1", "details_in_all_cases": "remark: other sources report otherwise", "key": {"[1]": {"molecular_target": "T1, SARS-CoV-2 delta variant B.1.617.2/3 RBD domain (SARS-CoV-2)", "assay": "ELISA"}, "[2]": {"molecular_target": "SARS-CoV-2 delta plus variant RBD (SARS-CoV-2)", "assay": "ELISA"}, "[3]": {"molecular_target": "T2, SARS-CoV-2 Spike ectodomain (tri-S), Wuhan (SARS-CoV-2), P0DTC2", "assay": "ELISA"}, "[4]": {"molecular_target": "SARS-CoV-2 RBD (B.1.1.7) domain (SARS-CoV-2)", "assay": "ELISA"}, "[5]": {"molecular_target": "T3, SARS-CoV-2 kappa variant B.1.617.1/3 RBD domain (SARS-CoV-2)", "assay": "ELISA"}, "[6]": {"molecular_target": "SARS-CoV-2 RBD domain, Wuhan (SARS-CoV-2)", "assay": "ELISA"}, "[7]": {"molecular_target": "SARS-CoV-2 RBD (P.1) domain (SARS-CoV-2)", "assay": "ELISA"}, "[8]": {"molecular_target": "SARS-CoV-2 Spike (S) protein on cells (S-Flow assay) (SARS-CoV-2), P0DTC2", "assay": "flow cytometry (Mock 2.5)"}, "[9]": {"molecular_target": "T2, SARS-CoV-2 Spike ectodomain (tri-S), …", "assay": "tri-S/ACE2 blocking ELISA"}, "[10]": {"molecular_target": "SARS-CoV-2 RBD (B.1.351) domain (SARS-CoV-2)", "assay": "ELISA", "parameters": "unit not given beside the values"}, "[11]": {"molecular_target": "T1, SARS-CoV-2 delta variant B.1.617.2/3 …", "assay": "ELISA", "parameters": "unit not given beside the values"}, "[12]": {"molecular_target": "SARS-CoV-2 delta plus variant RBD (SARS-CoV-2)", "assay": "ELISA", "parameters": "unit not given beside the values"}, "[13]": {"molecular_target": "T2, SARS-CoV-2 Spike ectodomain (tri-S), …", "assay": "ELISA", "parameters": "unit not given beside the values"}, "[14]": {"molecular_target": "SARS-CoV-2 RBD (B.1.1.7) domain (SARS-CoV-2)", "assay": "ELISA", "parameters": "unit not given beside the values"}, "[15]": {"molecular_target": "T3, SARS-CoV-2 kappa variant B.1.617.1/3 …", "assay": "ELISA", "parameters": "unit not given beside the values"}, "[16]": {"molecular_target": "SARS-CoV-2 RBD domain, Wuhan (SARS-CoV-2)", "assay": "ELISA", "parameters": "unit not given beside the values"}, "[17]": {"molecular_target": "SARS-CoV-2 RBD (P.1) domain (SARS-CoV-2)", "assay": "ELISA", "parameters": "unit not given beside the values"}, "[18]": {"molecular_target": "SARS-CoV-2 RBD (B.1.351) domain (SARS-CoV-2)", "assay": "RBD/ACE2 blocking ELISA"}, "[19]": {"molecular_target": "T1, SARS-CoV-2 delta variant B.1.617.2/3 …", "assay": "RBD/ACE2 blocking ELISA"}, "[20]": {"molecular_target": "SARS-CoV-2 delta plus variant RBD (SARS-CoV-2)", "assay": "RBD/ACE2 blocking ELISA"}, "[21]": {"molecular_target": "SARS-CoV-2 RBD (B.1.1.7) domain (SARS-CoV-2)", "assay": "RBD/ACE2 blocking ELISA"}, "[22]": {"molecular_target": "T3, SARS-CoV-2 kappa variant B.1.617.1/3 …", "assay": "RBD/ACE2 blocking ELISA"}, "[23]": {"molecular_target": "SARS-CoV-2 RBD domain, Wuhan (SARS-CoV-2)", "assay": "RBD/ACE2 blocking ELISA"}, "[24]": {"molecular_target": "SARS-CoV-2 RBD (P.1) domain (SARS-CoV-2)", "assay": "RBD/ACE2 blocking ELISA"}, "[25]": {"molecular_target": "SARS-CoV-2 RBD (B.1.351) domain (SARS-CoV-2)", "assay": "ELISA; unit from paragraph 452, none printed in the heatmap"}, "[26]": {"molecular_target": "T4, SARS-CoV-2 omicron variant B.1.1.529 Spike ectodomain (tri-S, HexaPro) (SARS-CoV-2), P0DTC2", "assay": "ELISA; unit from paragraph 452, none printed in the heatmap"}, "[27]": {"molecular_target": "T2, SARS-CoV-2 Spike ectodomain (tri-S), …", "assay": "tri-S-ACE2 competition ELISA; unit from legend paragraph 348"}, "[28]": {"molecular_target": "T4, SARS-CoV-2 omicron variant B.1.1.529 …"}}, "data": [{"binder": "CAS (antibody) chain 1: QVQLVESGGGLVKPGGSLRLSCAASGFTFSDYYMSWIRQAPGKGLEWVSYITYSGSTIYYADSVKGRFTISRDNAKSSLYLQMNSLRAEDTAVYYCARDRGTTMVPFDYWGQGTLVTVSS chain 2: DIQMTQSPSSLSASVGDRVTITCQASQDITNYLNWYQQKPGKAPKLLIYAASNLETGVPSRFSGSGSGTDFTFTISGLQPEDIATYYCQQYDNLPLTFGGGTKVEIK", "values": [{"measurement": "OD405nm", "setting": "[1]", "result": 3.4}, {"measurement": "OD405nm", "setting": "[2]", "result": 3.4}, {"measurement": "OD405nm", "setting": "[3]", "result": 3.2}, {"measurement": "OD405nm", "setting": "[4]", "result": 3.4}, {"measurement": "OD405nm", "setting": "[5]", "result": 3.6}, {"measurement": "OD405nm", "setting": "[6]", "result": 3.2}, {"measurement": "OD405nm", "setting": "[7]", "result": 3.5}, {"measurement": "log10 ΔgMFI", "setting": "[8]", "result": 4.5}]}, {"binder": "REGN10933 (parental IgG1 version) (antibody, V domains shown) VH: QVQLVESGGGLVKPGGSLRLSCAASGFTFSDYYMSWIRQAPGKGLEWVSYITYSGSTIYYADSVKGRFTISRDNAKSSLYLQMNSLRAEDTAVYYCARDRGTTMVPFDYWGQGTLVTVSS VL: DIQMTQSPSSLSASVGDRVTITCQASQDITNYLNWYQQKPGKAPKLLIYAASNLETGVPSRFSGSGSGTDFTFTISGLQPEDIATYYCQQYDNLPLTFGGGTKVEIK", "values": [{"measurement": "% binding inhibition", "setting": "[9]", "result": 96, "unit": "%"}, {"measurement": "AUC", "setting": "[10]", "result": 3}, {"measurement": "AUC", "setting": "[11]", "result": 3}, {"measurement": "AUC", "setting": "[12]", "result": 3}, {"measurement": "AUC", "setting": "[13]", "result": 3}, {"measurement": "AUC", "setting": "[14]", "result": 3}, {"measurement": "AUC", "setting": "[15]", "result": 4}, {"measurement": "AUC", "setting": "[16]", "result": 3}, {"measurement": "AUC", "setting": "[17]", "result": 3}, {"measurement": "% binding inhibition", "setting": "[18]", "result": 28, "unit": "%"}, {"measurement": "% binding inhibition", "setting": "[19]", "result": 97, "unit": "%"}, {"measurement": "% binding inhibition", "setting": "[20]", "result": 93, "unit": "%"}, {"measurement": "% binding inhibition", "setting": "[21]", "result": 91, "unit": "%"}, {"measurement": "% binding inhibition", "setting": "[22]", "result": 94, "unit": "%"}, {"measurement": "% binding inhibition", "setting": "[23]", "result": 97, "unit": "%"}, {"measurement": "% binding inhibition", "setting": "[24]", "result": 0, "unit": "%"}]}, {"binder": "Casirivimab (antibody) heavy chain: QVQLVESGGGLVKPGGSLRLSCAASGFTFSDYYMSWIRQAPGKGLEWVSYITYSGSTIYYADSVKGRFTISRDNAKSSLYLQMNSLRAEDTAVYYCARDRGTTMVPFDYWGQGTLVTVSS light chain: DIQMTQSPSSLSASVGDRVTITCQASQDITNYLNWYQQKPGKAPKLLIYAASNLETGVPSRFSGSGSGTDFTFTISGLQPEDIATYYCQQYDNLPLTFGGGTKVEIK", "values": [{"measurement": "EC50", "setting": "[25]", "result": 0.009, "unit": "µg/mL"}, {"measurement": "EC50", "setting": "[26]", "result": 0.804, "unit": "µg/mL"}, {"measurement": "IC50", "setting": "[27]", "result": 0.2, "unit": "µg/mL"}, {"measurement": "IC50", "setting": "[28]", "result": "> 2", "unit": "µg/mL"}]}, {"binder": "Regdanvimab (antibody) heavy chain: QITLKESGPTLVKPTQTLTLTCSFSGFSLSTSGVGVGWIRQPPGKALEWLALIDWDDNKYHTTSLKTRLTISKDTSKNQVVLTMTNMDPVDTATYYCARIPGFLRYRNRYYYYGMDVWGQGTTVTVSS light chain: ELVLTQPPSVSAAPGQKVTISCSGSSSNIGNNYVSWYQQLPGTAPKLLIYDNNKRPSGIPDRFSGSKSGTSATLGITGLQTGDEADYYCGTWDSSLSAGVFGGGTELTVL", "values": [{"measurement": "EC50", "setting": "[25]", "result": 0.008, "unit": "µg/mL"}]}]}
